This note sets out measurements from publication PMC7134557.

As a reminder, the Km is the concentration of substrate that gives half-maximal velocity. A word on the kcat: it is the number of substrate molecules converted per active site and unit of time at saturation.

The data set relates to Nc1ncnc2c1ncn2[C@@H]1O[C@H](COP(=O)(O)OP(=O)(O)OP(=O)(O)O)[C@@H](O)[C@H]1O. Nature of the data set: purified protein.
Take “BaMV helicase-like domain (of BaMV replicase) (Bamboo mosaic virus; K610A)”: the Km worked out at 126 ± 6 µM and the kcat amounted to 58 s⁻¹.

As to “BaMV helicase-like domain (of BaMV replicase) (Bamboo mosaic virus; K603A)”, the Km came to 161 ± 11 µM and the kcat was found to be 61 s⁻¹.

Consider “BaMV helicase-like domain (of BaMV replicase) (Bamboo mosaic virus; R597A)”, for which the Km came out at 137 ± 6 µM and the kcat worked out at 49 s⁻¹.
